A mixed list of measured activities; the numbers were collected in NIAID ChemDB.

Shared fields: tests in culture; species: Mycobacterium tuberculosis

MIC bound comes from a single tested concentration. Two numbers with a dash give a range or band. Conditions beyond the fields shown may differ between rows. Blank or dashed fields: not listed here. A number after MIC or MFC names an inhibition level or a share of isolates. Inhibition is in % at the dose shown (toxicity tests: loss of growth or viability).

compound	dose	read by	measure	strain or isolate	result
O=C(CSc1nnc(-c2ccccn2)s1)N/N=c1/scc(-c2ccccc2)n1-c1ccc(Br)cc1	-	-	MIC	H37Rv	>80 µg/mL
CC(=O)NC[C@H]1CN(c2ccc(N3CCOCC3)c(F)c2)C(=O)O1	-	-	MIC	19 strains	>16 µg/mL
CC1COc2c(N3CCN(C)CC3)c(F)cc3c(=O)c(C(=O)O)cn1c23	-	-	MIC90	55 isolates (RMP INH-R)	2 µg/mL
O=[N+]([O-])c1ccc2nc(/C=C/c3ccccc3)[nH]c2c1	-	resazurin	MIC	H37Rv (ATCC 27294)	>7.25 µg/mL
O=C(CSc1nnc(-c2ccccn2)s1)N/N=c1/scc(-c2cccc(Br)c2)n1-c1ccccc1	-	-	MIC	Clinical isolate 190	>80 µg/mL
O=[N+]([O-])c1ccc2nc(/C=C/c3ccc4c(c3)OCO4)[nH]c2c1	-	resazurin	MIC	H37Rv (ATCC 27294)	>7.25 µg/mL
OCCNc1nc2ccccc2c2ccccc12	12.5 µg/mL	BACTEC	inhibition	H37Rv	-18%
O=C1C=C(Nc2ccc(S(=O)(=O)Nc3ccc(S(=O)(=O)c4ccc(NC5=CC(=O)c6ccccc6C5=O)cc4)cc3)cc2)C(=O)c2ccccc21	-	-	MIC	-	2 µg/mL
Clc1ccccc1-n1cc(CSC2c3ccccc3-c3ccccc32)nn1	-	broth dilution	MIC99	Specimen 192	>256 µM
O=C(O)[C@H](CS)NC1CC(=O)N(Cc2ccccc2)C1=O	-	BACTEC	MIC bound	H37Rv	>12.8 µg/mL
CCCCCCCCCCCCCCC/C=C\C(=O)N(O)CCCC[C@H](NC(=O)[C@@H]1COC(c2ccccc2O)=N1)C(=O)O[C@@H](C)CC(=O)N[C@H]1CCCCN(O)C1=O	12.5 µg/mL	-	inhibition	H37Rv	>99%
COc1ccccc1CSc1ncccn1	6.25 µg/mL	-	inhibition	H37Rv	6%
OCC(O)C(O)CO	-	BACTEC	MIC bound	H37Rv	>12.5 µg/mL
N/C(COc1ccccc1Cl)=N/NC(=O)c1ccncc1	-	-	MIC	H37Rv(ATCC25584)	25 µg/mL
O=C1/C=C2/C=CC=CN2C(=O)/C=C2/C=CC=CN12	-	BACTEC	MIC bound	H37Rv	>12.5 µg/mL
COc1cc(C(O)C[N+](=O)[O-])cc(Br)c1OC	-	-	MIC	H37Rv	125 µg/mL
N/C(COc1ccc([N+](=O)[O-])cc1)=N/NC(=O)c1ccncc1	-	-	MIC	INH-r	25 µg/mL
CC[C@H]1OC(=O)[C@H](C)[C@@H](O[C@H]2C[C@@](C)(OC)[C@@H](O)[C@H](C)O2)[C@H](C)[C@@H](O[C@@H]2O[C@H](C)C[C@H](N(C)C)[C@H]2O)[C@](C)(O)C[C@@H](C)/C(=N\OCOCCOC)[C@H](C)[C@@H](O)[C@]1(C)O	-	-	MIC90	188 strains	4 µg/mL
NNC(=O)c1cc(-c2ccccc2)nc2ccccc12	-	-	MIC	-	>40 µg/mL
Nc1ccc(C(=O)O)c(Cl)c1.O=P(O)(Oc1ccccc1)Oc1ccccc1	-	BACTEC	MIC bound	H37Rv	>12.5 µg/mL
CCCCCCSc1nc(Cl)nc2nc[nH]c12	-	-	MIC90	H37Rv	>6.25 µg/mL
CC(=O)NC1C(OC(C)=O)OC(COC(c2ccccc2)(c2ccccc2)c2ccccc2)C(O)C1OC(C)=O	-	BACTEC	MIC bound	H37Rv	>12.5 µg/mL
C=C1C[C@@H](OC(=O)CO)C2CCC[C@]3(CCC(=O)C23)C[C@@H]1O	-	resazurin	MIC	mc(^2)7000	>200 µg/mL
CCOC(=O)c1ccc(NS(=O)(=O)c2ccc(NC3=CC(=O)c4ccccc4C3=O)cc2)cc1	-	-	MIC	-	2 µg/mL
COC(=O)Cc1cc([N+](=O)[O-])c(Oc2cc(/C=C/[N+](=O)[O-])cc(OC)c2O)c([N+](=O)[O-])c1	-	-	MIC	H37Rv	15.6–52.5 µg/mL
CCOC(=O)c1ccc(NS(=O)(=O)c2ccc(NC3=CC(=O)c4ccccc4C3=O)cc2)cc1O	-	-	MIC	-	1.5 µg/mL
c1ccc(-n2nnnc2SSc2nnnn2-c2ccccc2)cc1	-	-	MIC	H37Rv	>1000 µM
Brc1ccc(-n2cc(CNC3c4ccccc4-c4ccccc43)nn2)cc1	-	broth dilution	MIC99	H37Rv	240 µM
CC(=O)Nc1ccc(OC/C(N)=N\NC(=O)c2ccncc2)cc1	-	-	MIC	H37Rv(ATCC25584)	50 µg/mL
C=C[C@]1(C)C[C@@H](OC(=O)CSCCN(CC)CC)[C@]2(C)[C@H](C)CC[C@]3(CCC(=O)[C@H]32)[C@@H](C)[C@@H]1O	-	resazurin	MIC	mc(^2)7000	12–25 µg/mL
C=CCc1cc(/C=N/NC(=O)c2ccncc2)ccc1O	-	-	MIC	-	0.1 µg/mL
Cc1ccc(-n2nnnc2SSc2nnnn2-c2ccc(C)c(C)c2)cc1C	-	-	MIC	H37Rv	250 µM
Cc1cccc(C)c1Sc1nc(Cl)nc2nc[nH]c12	-	-	MIC90	H37Rv	>6.25 µg/mL
CC(C)NC(=O)OCCN=C1c2ccccc2C(Br)C(Br)c2ccccc21	-	BACTEC	MIC bound	H37Rv	>12.5 µg/mL
N/C(COc1ccc(Cl)cc1)=N/NC(=O)c1ccncc1	-	-	MIC	H37Rv(ATCC25584)	6.25 µg/mL
NNC(=O)c1ccncc1	-	broth dilution	MIC	Specimen 192	0.66 µM
COc1cc(/C=C/C(=O)O)cc(Oc2ccc(/C=C/C(=O)O)cc2)c1OC(C)=O	-	-	MIC	H37Rv	125 µg/mL
CCN(CC)c1ccc(/C=N/NC(=O)c2cccnc2)cc1	-	-	MIC	-	1 µg/mL
COc1ccc(OC/C(N=Cc2ccncc2)=N\NC(=O)c2ccncc2)cc1	-	-	MIC	H37Rv(ATCC25584)	>100 µg/mL
CN1C(=O)[C@]2(CO)NC(=O)[C@@]1(Cc1ccccc1)SS[C@@]1(CO)NC(=O)[C@@](Cc3ccccc3)(SS2)N(C)C1=O	-	-	MIC	H37Ra	12.5 µg/mL
COc1ccc(C=O)cc1	-	resazurin	MIC	H37Rv	8.16 µg/mL
COc1ccc(/C=C/c2nc3ccc([N+](=O)[O-])cc3[nH]2)cc1OC	-	resazurin	MIC	H37Rv (ATCC 27294)	>7.25 µg/mL
O=[N+]([O-])/C=C/c1ccc(Oc2cc(/C=C/[N+](=O)[O-])ccc2O)cc1	-	-	MIC	H37Rv	31.25 µg/mL
COc1cccc(OC/C(N)=N\NC(=O)c2ccncc2)c1	-	-	MIC	H37Rv(ATCC25584)	12.5 µg/mL
NC(=O)N/N=C/c1ccc([N+](=O)[O-])s1	6.25 µg/mL	resazurin	inhibition	H37Rv	-17%
CCc1ccc(-n2cc(CS(=O)(=O)C3c4ccccc4-c4ccccc43)nn2)cc1	-	broth dilution	MIC99	Specimen 192	120 µM
C/C(=C\CO)CCC[C@H](C)CCC[C@H](C)CCCC(C)C	33 µg/mL	-	inhibition	H37Rv	63%
COC(=O)Cc1cc([N+](=O)[O-])c(Oc2cc(C=O)cc(OC)c2O)c([N+](=O)[O-])c1	-	-	MIC	H37Rv	250–1000 µg/mL
O=C(CSc1nnc(-c2ccccn2)s1)N/N=c1/scc(-c2ccc(Cl)cc2)n1-c1ccccc1	-	-	MIC	Clinical isolate 180	40 µg/mL
Cc1cccc(CSc2ccncc2)c1	-	-	MIC90	H37Rv	>6.25 µg/mL
Cc1ncc([N+](=O)[O-])n1C	6.25 µg/mL	resazurin	inhibition	H37Rv	5%
O=C(N/N=C/c1ccc2c(c1)OCO2)c1cccnc1	-	-	MIC	-	10 µg/mL
C=CC1=C(C)C2=NC1=CC1=NC(=C(CC)/C1=C\O)C=C1N=C3C(=C1C)C(=O)[C@H](C(=O)OC)C3=C1NC(=C2)[C@@H](C)[C@@H]1CCC(=O)O	-	resazurin	MIC bound	H37Rv	>6.25 µg/mL
O=C(N/N=C/c1ccc(O)cc1)c1ccncc1	-	-	MIC	-	<0.1 µg/mL
COc1ccc(/C(N=Nc2ccccc2)=N/N=C(N)N)cc1	-	BACTEC	MIC	H37Rv	≥12.5 µg/mL
c1c[nH]c(Sc2ncnc3nc[nH]c23)n1	-	-	MIC	H37Ra	>12.8 µg/mL
O=C(CSc1nnc(-c2ccccn2)s1)N/N=c1/scc(-c2ccccc2)n1-c1ccccc1	-	-	MIC	Clinical isolate 180	>80 µg/mL
CN1C[C@H](C(=O)N[C@]2(C)O[C@@]3(O)[C@@H]4CCCN4C(=O)[C@H](Cc4ccccc4)N3C2=O)C=C2c3cccc4[nH]cc(c34)C[C@H]21	12.8 µg/mL	BACTEC	inhibition	H37Rv	-2%
O=C(CSc1nnc(-c2ccccn2)s1)N/N=c1/scc(-c2ccccc2Br)n1-c1ccccc1	-	-	MIC	Clinical isolate 180	80 µg/mL
COC(=O)c1cc(OC)c(OC)c(Oc2c(N)cc(C=O)cc2OC)c1	-	-	MIC	H37Rv	62.5–125 µg/mL
CS[C@@]1(Cc2ccccc2)NC(=O)[C@@](Cc2ccccc2)(SC)NC1=O	-	-	MIC	H37Ra	25 µg/mL
CC(C)=CC(O)C/C(C)=C/CC/C(C)=C/CCC1(C)C(CCCO)/C(=C(\C)C=O)CCC1(C)O	12.5 µg/mL	BACTEC	inhibition	H37Rv	31%
COC(=O)c1ccc(Oc2cc(C)cc(OC)c2OC)cc1	-	-	MIC	H37Rv	125–500 µg/mL
O=c1nc(SCc2ccncc2)c2[nH]cnc2[nH]1	-	-	MIC	H37Ra	>12.8 µg/mL
CN1c2ccccc2CCC1CCc1ccc2c(c1)OCO2	-	-	MIC	MT2	50 µg/mL
COC1/C=C\C=C(/C)C(=O)Nc2cc3nc4cc(Br)ccc4oc-3c(c2=O)CC(C)CC(OC)C(O)C(C)/C=C(\C)C1OC(N)=O	-	-	MIC	KM-R	12.5 µg/mL
Fc1ccc(-n2nnnc2SSc2nnnn2-c2ccc(F)cc2)cc1	-	-	MIC	H37Rv	250 µM
CCOC(=O)c1cc(C2(O)CCN(Cc3ccccc3)C2=O)c(-c2cc(C)no2)[nH]1	-	resazurin	MIC bound	H37Rv	>6.25 µg/mL
CC(C)N=C(N)/N=C(\N)NOCCCOc1cc(Cl)c(Cl)cc1Cl	-	-	MIC	Erdman	2.2 µg/mL
O=C(N/N=C/c1ccccc1[N+](=O)[O-])c1cccnc1	-	-	MIC	-	10 µg/mL
Cc1ccc(/C=C/c2nc3ccc(Br)cc3[nH]2)cc1	-	resazurin	MIC	H37Rv (ATCC 27294)	>7.25 µg/mL
COc1ccc(CCC2CCc3ccccc3N2C)cc1OC	-	-	MIC	MT4	>100 µg/mL
COC(=O)Oc1nn(C(=O)OC)c(=O)c2ccccc12	0.5 µM	BACTEC	inhibition	H37Rv	0%
Clc1ccc(C(c2ccccc2)c2ccc(OCCN3CCCC3)c3ccccc23)cc1	-	resazurin	MIC	H37Rv	>12.5 µg/mL
NNC(=O)c1cccnc1	-	-	MIC	-	10 µg/mL
O=C(O)c1ccc([N+](=O)[O-])cc1Cl	-	BACTEC	MIC bound	H37Rv	>12.5 µg/mL
COc1ccc(Sc2nc(Cl)nc3nc[nH]c23)cc1OC	-	-	MIC90	H37Rv	>6.25 µg/mL
c1ccc(C2(c3ccc(C4(c5ccccc5)Oc5ccccc5S4)[nH]3)Oc3ccccc3S2)cc1	12.5 µg/mL	BACTEC	inhibition	H37Rv	15%
O=C(N/N=C/c1cc(Cl)cc(Cl)c1O)c1ccncc1	-	-	MIC	-	0.1 µg/mL
COc1ccc(/C=C2\N=C(c3ccc(N)cc3)OC2=O)cc1OC	12.5 µg/mL	BACTEC	inhibition	H37Rv	81%
NCC[C@H](O)C(=O)N[C@@H]1C[C@H](N)[C@@H](O[C@H]2O[C@H](CN)[C@@H](O)[C@H](O)[C@H]2O)[C@H](O)[C@H]1O[C@H]1O[C@H](CO)[C@@H](O)[C@H](N)[C@H]1O	-	-	MIC	TN3360 (W)	>256 µg/mL
Clc1cc2ns[s+]c2cc1Cl.[Cl-]	-	resazurin	MIC	H37Rv	1.56 µg/mL
CCN(CC)c1ccc(/C=N/NC(=O)c2ccncc2)cc1	-	-	MIC	-	1 µg/mL
C=C1C[C@@H](OC(=O)CSCCN(CC)CC)C2CCC[C@]3(CCC(=O)C23)C[C@@H]1O	-	resazurin	MIC	mc(^2)7000	50–100 µg/mL

The first 8 rows once more:

| compound | dose | read by | measure | strain or isolate | result |
|---|---|---|---|---|---|
| O=C(CSc1nnc(-c2ccccn2)s1)N/N=c1/scc(-c2ccccc2)n1-c1ccc(Br)cc1 | - | - | MIC | H37Rv | >80 µg/mL |
| CC(=O)NC[C@H]1CN(c2ccc(N3CCOCC3)c(F)c2)C(=O)O1 | - | - | MIC | 19 strains | >16 µg/mL |
| CC1COc2c(N3CCN(C)CC3)c(F)cc3c(=O)c(C(=O)O)cn1c23 | - | - | MIC90 | 55 isolates (RMP INH-R) | 2 µg/mL |
| O=[N+]([O-])c1ccc2nc(/C=C/c3ccccc3)[nH]c2c1 | - | resazurin | MIC | H37Rv (ATCC 27294) | >7.25 µg/mL |
| O=C(CSc1nnc(-c2ccccn2)s1)N/N=c1/scc(-c2cccc(Br)c2)n1-c1ccccc1 | - | - | MIC | Clinical isolate 190 | >80 µg/mL |
| O=[N+]([O-])c1ccc2nc(/C=C/c3ccc4c(c3)OCO4)[nH]c2c1 | - | resazurin | MIC | H37Rv (ATCC 27294) | >7.25 µg/mL |
| OCCNc1nc2ccccc2c2ccccc12 | 12.5 µg/mL | BACTEC | inhibition | H37Rv | -18% |
| O=C1C=C(Nc2ccc(S(=O)(=O)Nc3ccc(S(=O)(=O)c4ccc(NC5=CC(=O)c6ccccc6C5=O)cc4)cc3)cc2)C(=O)c2ccccc21 | - | - | MIC | - | 2 µg/mL |